# Article PMC8779843
# Target: Recombinant human ACE2 protein (a.a. 18Q-740S) (human) (UniProt Q9BYF1)
# Assay: BLI; biotinylated ACE2 loaded at 30 µg/mL on streptavidin pins, Octet K2; BLI buffer PBS, 0.1% tween-20; mRBD or pRBD added at one concentration, 30 μg/mL (285 nM); association 180 s, dissociation 320 s
substance,measurement,value
recombinant receptor-binding domain of protein S SARS-CoV-2 expressed in CHO cells (mRBD) (from UniProt P0DTC2 308-542) (domain or fragment; other documents disagree on this pair),Kd,58.2 nM
